Compound potency records, mixed from different reports. Data source: NIAID ChemDB in PubChem.

Shared fields: whole-cell or culture tests; species: Aspergillus niger; measure: zone

Neighbouring rows are from separate reports.

compound	tested at	method	strain	result
COc1ccc(C2SCC(=O)N2NC(=O)Cn2c(=O)c(C)nc3ccccc32)cc1O	50 µg/mL			12 mm
CS(=O)(=O)c1nc(N)c(C#N)c(-c2ccccc2O)n1	25 µg/mL	agar diffusion	MTCC 282	18 mm
O=C(NN=C1CCCCC1)c1snnc1C(F)(F)F	150 µg/mL	agar diffusion / agar	MTCC 1344	0 mm
COc1ccc(C2N=C(SC)NC(N)=C2C#N)cc1	100 µg/mL	agar diffusion	MTCC 282	15 mm
CN(C)c1ccc(C=NNC(=O)c2snnc2C(F)(F)F)cc1	150 µg/mL	agar diffusion / agar	MTCC 1344	0 mm
Cc1nc2ccccc2n(CC(=O)NN2C(=O)CSC2c2ccc(C(F)(F)F)cc2)c1=O	50 µg/mL			13 mm
CC(C)n1c(/C=C/C=Nn2cn[nH]c2=S)c(-c2ccc(F)cc2)c2ccccc21	200 µg/mL			10 mm
COc1ccc2nc3n4c(c5ccccc5c-3c2c1)NN=C(c1ccccc1)C4	25 µg/mL	agar diffusion / visual reading	MTCC 281	7 mm
CC(C)=NNC(=O)c1snnc1C(F)(F)F	100 µg/mL	agar diffusion / agar	MTCC 1344	0 mm
CSC1=NC(c2ccc(Cl)cc2)C(C#N)=C(N)N1	25 µg/mL	agar diffusion	MTCC 282	14 mm
Cc1nc2ccccc2n(CC(=O)NN2C(=O)CSC2c2ccc(N(C)C)cc2)c1=O	100 µg/mL			18 mm
CC1=C(Cl)C(O)=CC(=O)C12Oc1cc(O)c(Cl)c(C)c1C2=O	50 µg/mL	agar diffusion	MTCC 282	22 mm
Cc1cc(=O)oc2c(C=Nc3cccc4cccc(N=Cc5c(O)ccc6c(C)cc(=O)oc56)c34)c(O)ccc12	200 µg/mL		MTCC 1881	11 mm
Cc1nc2ccccc2n(CC(=O)NN2C(=O)CSC2c2ccc(O)cc2)c1=O	100 µg/mL			20 mm
C[C@@H]1[C@H](O)[C@@H](C)/C=C/C=C/C=C/C=C/C=C/C=C/C=C/[C@H](O[C@@H]2O[C@H](C)[C@@H](O)[C@H](N)[C@@H]2O)C[C@@H]2O[C@](O)(C[C@@H](O)C[C@@H](O)[C@H](O)CC[C@@H](O)C[C@@H](O)CC(=O)O[C@H]1C)C[C@H](O)[C@H]2C(=O)O	100 µg/mL	agar diffusion / agar	MTCC 1344	25 mm
CN(C)C=O	30 µg/mL			6 mm
COc1ccc(C2SCC(=O)N2NC(=O)Cn2c(=O)c(C)nc3ccccc32)cc1	100 µg/mL			14 mm

A second listing of 2 rows from above:

compound | tested at | method | strain | result
CC(C)n1c(/C=C/C=Nn2cn[nH]c2=S)c(-c2ccc(F)cc2)c2ccccc21 | 200 µg/mL |  |  | 10 mm
CC(C)=NNC(=O)c1snnc1C(F)(F)F | 100 µg/mL | agar diffusion / agar | MTCC 1344 | 0 mm

Blank or dashed fields: not listed here. Zone: diameter of growth inhibition.